Data reported in US20120225093A1, “Abrogating HIV-1 Infection via Drug-Induced Reactivation of Apoptosis” (UNIVERSITY OF MEDICINE AND DENTISTRY OF NEW JERSEY, priority 2010, published 2012).

Experiments:
[1] = system: IL-10; assay: IL-10 secretion by PBMC cultures (cytometric bead array); format: cell-based, human
Experimental: (§1) Uninfected PBMCs were co-incubated with infected PBMC stock in 24-well microplates at 2 ml/well Medium B, at a 10:1 ratio of uninfected-to-infected cells, and a total cell number of 1×10^6. Cultures were maintained and assayed for 6 consecutive days. CPX or Agent P2 was added at the time of inoculation or 12 hr later. Leaving the cell layer undisturbed, half the medium in each well was replenished every day, with concurrent adjustment of compound concentration. On each day during the 6-day experiments, a set of wells was harvested: the cells were processed for determination of viability and apoptosis, and the cell-free supernatants were stored at −80° C. for p24 and viral RNA measurements. Experiments were performed at least in duplicate and repeated at least twice.
(§2) p24 core antigen in the supernatant was quantified by ELISA (Retrotek HIV-1 p24™; ZeptoMetrix Corp.; Buffalo, N.Y.). HIV-1 RNA copy number in the supernatant was determined with a PCR-based and FDA-approved assay (Amplicor HIV-1 Monitor™; Roche Diagnostics Corp.; Indianapolis, Ind.). IFN-γ and IL-10 in the supernatant were determined by cytometric bead array (Human Th1/Th2 Cytokine Kit II™; BD Biosciences Pharmingen, San Jose, Calif.).
(§3) To further assess the cellular effects of CPX, the secretion of interferon (IFN)-γ and interleukin (IL)-10 was measured. […]

[2] = system: IFN-γ; assay: IFN-γ secretion by PBMC cultures (cytometric bead array); format: cell-based, human
Experimental: as §1, §2, §3

Q: Cc1cc(C2CCCCC2)n(O)c(=O)c1 [CPX, 6-cyclohexyl-1-hydroxy-4-methylpyridin-2[1H]-one] was tested. Which “initial level of IL-10” value ([1]; HIV-exposed CPX-treated cells) did it give?
A: 34 pg per 10^6 vital cells

Q: What about the “initial level of IL-10” value ([1]; uninfected CPX-treated cells) of the same molecule?
A: 40 pg per 10^6 vital cells

Q: What about the “initial level of IFN-γ” value ([2]; HIV-exposed CPX-treated cells) of the same molecule?
A: 657 pg per 10^6 vital cells

Q: What about the “initial level of IFN-γ” value ([2]; uninfected CPX-treated cells) of the same molecule?
A: 634 pg per 10^6 vital cells
